Experimental findings from patent US7157481B2 (priority 1997, dated 2007) are described below.

In this assay the test system is Pyricularia oryzae. The experiment in a line: Pyricularia Test (Rice)/Induction of resistance. As to conditions: young rice plants sprayed at 750 g/ha; inoculated 5 days after treatment; evaluation 4 days after inoculation; 100% = no infection.

`CCC(C)c1ccc(NC(=O)c2snc(Cl)c2Cl)cc1` (stereo not shown) [Example 16] showed an Efficacy in % of 90%.
On to `CCN(CC)Cc1ccc(CNC(=O)c2snc(Cl)c2Cl)cc1` [Example 14], for which the Efficacy in % was determined as 100%.
The figure for `CCC(CC)c1ccc(NC(=O)c2snc(Cl)c2Cl)cc1` is 90%.
Then `Cc1ccc(NC(=O)c2snc(Cl)c2Cl)c(C)c1`, with 90%; and `N#Cc1ccccc1NC(=O)c1snc(Cl)c1Cl`, with 90%.
Then `CC(C)(C)CSCc1ccc(NC(=O)c2snc(Cl)c2Cl)cc1`, with 90%; and `O=C(NCCOS(=O)OCCNC(=O)c1snc(Cl)c1Cl)c1snc(Cl)c1Cl`, with 90%.
